The assay has as its system SARS-CoV-2. As to the kind of experiment: Antiviral activity against SARS-CoV-2 (USA-WA1/2020 strain) measured by imaging in HRCE cells at MOI 0.4 after 96 hrs (reported as hit score from 0-1 for on-disease vs off-disease activity: scores >0.6 considered hits). It is filed as functional. The conditions noted are these: Homo sapiens.

Compound `CC1(C)C2CCC1(CS(=O)(=O)O)C(=O)C2=Cc1ccc(C=C2C(=O)C3(CS(=O)(=O)O)CCC2C3(C)C)cc1.OCCN(CCO)CCO.OCCN(CCO)CCO` registered a Hit score of 0.179.

The values are drawn from ChEMBL document CHEMBL4303122, “Identification of potential treatments for COVID-19 through artificial intelligence-enabled phenomic analysis of human cells infected with SARS-CoV-2” (2020).
